Compound potency records, mixed from different reports. Data source: NIAID ChemDB in PubChem.

A number after MIC or MFC names an inhibition level or a share of isolates. Lines come from different laboratories, so protocols vary. Percent inhibition refers to the dose given; in toxicity tests it is the harm to the cells. MIC bound: limit read from a one-dose screen. Blank or dashed fields: not listed here. ICn is the concentration giving n% inhibition.

SMILES | target | agent | strain | cells | endpoint | test | tested at | read by | result
CCN(CC)CCNc1ccc2ncn3c4ccc(O)cc4c(=O)c1c23.Cl | - | Mycobacterium tuberculosis | H37Rv | - | inhibition | culture | 12.5 µg/mL | BACTEC | 99%
c1ccc(CNCCNCCC(c2ccccc2)c2ccccc2)cc1 | - | Mycobacterium tuberculosis | - | - | MIC | culture | - | - | 50 µM
Cc1ccc(NC(=O)OC(C)C)cc1Cl | - | Mycobacterium tuberculosis | H37Rv | - | MIC bound | culture | - | BACTEC | >12.5 µg/mL
C[N+](C)(CCCCCCCCCCOc1ccccc1)CCCCCCCCCCOc1ccccc1.[Br-] | - | Mycobacterium tuberculosis | H37Rv | - | MIC | culture | - | - | >100 µg/mL
CC(C)(O)CC[C@@H](O)[C@](C)(O)[C@H]1CC[C@@]2(O)C3=CC(=O)[C@@H]4C[C@@H](O)[C@@H](O)C[C@]4(C)[C@H]3CC[C@]12C | - | Mycobacterium tuberculosis | H37Rv | - | inhibition | culture | 12.5 µg/mL | BACTEC | 4%
CCCCCCCCCCCCCCCCCC1=NCCN1 | - | Mycobacterium tuberculosis | H37Rv | - | MIC | culture | - | - | 25 µg/mL
Cc1c(NC(=O)CCl)c(=O)n(-c2ccccc2)n1C | - | Mycobacterium tuberculosis | H37Rv | - | inhibition | culture | 12.5 µg/mL | BACTEC | -19%
CCOC(=O)C(Br)C(Br)C(=O)OCC | - | Mycobacterium tuberculosis | H37Rv | - | MIC | culture | - | - | >100 µg/mL
c1ccc(CCCCNCCNC2CCCCCCC2)cc1 | - | Mycobacterium tuberculosis | - | - | MIC | culture | - | - | 25 µM
NC(=O)C(O)c1ccccc1 | - | Mycobacterium tuberculosis | H37Rv | - | MIC | culture | - | - | >100 µg/mL
CC(CNCC(c1ccccc1)c1ccccc1)N[C@H]1C[C@H]2CC[C@]1(C)C2(C)C | - | Mycobacterium tuberculosis | - | - | MIC | culture | - | - | 50 µM
COc1ccc2c(O)c(Oc3ccccc3)c(=O)oc2c1 | - | Mycobacterium tuberculosis | H37Rv | - | MIC bound | culture | - | BACTEC | >12.5 µg/mL
Cc1ccc(S(=O)(=O)Nc2ccc(N)cc2)cc1 | - | Mycobacterium tuberculosis | H37Rv | - | MIC | culture | - | - | >100 µg/mL
OCc1ccc(-c2cncc(N3CCN(c4cccc(Cl)c4)CC3)n2)cc1 | UL97 kinase | Cytomegalovirus | - | - | IC50 | target | - | - | <10 µM
COc1cccc2c1sc1ccccc12 | - | Mycobacterium tuberculosis | H37Rv | - | MIC | culture | - | - | >100 µg/mL
CCOc1ccc(NC(=O)C(N=Nc2ccc(S(=O)(=O)NC3ONC(C)C3C)cc2)C(C)=O)cc1 | - | Mycobacterium tuberculosis | H37Rv | - | MIC bound | culture | - | BACTEC | >12.5 µg/mL
COc1cccc(N2CCN(c3cncc(-c4ccccc4)n3)CC2)c1 | UL97 kinase | Cytomegalovirus | - | - | inhibition | target | 10 µM | - | >15%
CCCCC(CC)CN1CN(CC(CC)CCCC)CC(C)(NCCNCC2(O)CCCCC2)C1 | - | Mycobacterium tuberculosis | - | - | MIC | culture | - | - | 6.25 µM
O=C(C[n+]1ccccc1)c1ccc(O)cc1O.[I-] | - | Mycobacterium tuberculosis | H37Rv | - | MIC | culture | - | - | >100 µg/mL
COc1cc(C)c(CC(NC(=O)C2CCCCC2)C(=O)O)c(OC)c1 | - | Mycobacterium tuberculosis | H37Rv | - | inhibition | culture | 12.5 µg/mL | BACTEC | 4%
CCCCCNCCNCC12CC3CC(CC(C3)C1)C2 | - | Mycobacterium tuberculosis | - | - | MIC | culture | - | - | 50 µM
Nc1cccc(CS(=O)(=O)[O-])c1.[Na+] | - | Mycobacterium tuberculosis | H37Rv | - | MIC | culture | - | - | >100 µg/mL
CCOC(=O)C(NC(=O)c1cccc(Cl)c1)(N1CCN(c2cc3c(cc2F)c(=O)c(C(=O)O)cn3CC)CC1)C(F)(F)F | - | Mycobacterium tuberculosis | H37Rv | - | MIC bound | culture | - | resazurin | <6.25 µg/mL
CC(C)(CO)NCCNCCc1ccccc1F | - | Mycobacterium tuberculosis | - | - | MIC | culture | - | - | 25 µM
CC(=O)c1ccc(-c2cncc(N3CCN(c4cccc(Cl)c4)CC3)n2)cc1 | UL97 kinase | Cytomegalovirus | - | - | IC50 | target | - | - | <10 µM
CCN(CC)CCNc1ccc(C)c2sc3ccc(OC)cc3c(=O)c12 | - | Mycobacterium tuberculosis | H37Rv | VERO | MIC | culture | - | BACTEC | 3.13 µg/mL
CN(C)c1ccc(-c2cccc(-c3ccc(N(C)C)cc3)n2)cc1 | - | Mycobacterium tuberculosis | H37Rv | - | MIC | culture | - | - | >100 µg/mL
Fc1ccc(CCNCCNCCc2ccccc2F)cc1 | - | Mycobacterium tuberculosis | - | - | MIC | culture | - | - | 25 µM
COc1ccc(N2CCN(c3cncc(-c4cc(C)cc(C)c4)n3)CC2)cc1OC | UL97 kinase | Cytomegalovirus | - | - | inhibition | target | 10 µM | - | >15%
NC(=O)/C(N=Nc1ccccc1S(=O)(=O)O)=N/Nc1ccccc1S(=O)(=O)O | - | Mycobacterium tuberculosis | H37Rv | - | MIC | culture | - | BACTEC | ≥12.5 µg/mL
Clc1cccc(N2CCN(c3cncc(-c4ccoc4)n3)CC2)c1 | UL97 kinase | Cytomegalovirus | - | - | IC50 | target | - | - | <10 µM
NC(=O)c1cccc2c1Oc1ccccc1S2 | - | Mycobacterium tuberculosis | H37Rv | - | MIC | culture | - | - | >100 µg/mL
C=CCc1ccc(OC)c(OC)c1 | - | Candida tropicalis | 2356 | - | MIC90 | culture | - | turbidity | 345 µg/mL
NC(=O)c1ccc(-c2cncc(NCc3ccccc3)n2)cc1 | UL97 kinase | Cytomegalovirus | - | - | IC50 | target | - | - | <1 µM
CCOP(=O)(OCC)Oc1ccc(S(C)=O)cc1 | - | Mycobacterium tuberculosis | H37Rv | - | MIC bound | culture | - | resazurin | >6.25 µg/mL
Fc1ccccc1CCNCCNCCc1ccc(Cl)cc1Cl | - | Mycobacterium tuberculosis | - | - | MIC | culture | - | - | 50 µM
CCOc1c(N=Nc2ccccc2OC)c(C)nn1C(=S)S | - | Mycobacterium tuberculosis | H37Rv | - | MIC | culture | - | BACTEC | ≥12.5 µg/mL
Cc1cc(C)cc(-c2cncc(N3CCN(c4ccc(F)cc4)CC3)n2)c1 | UL97 kinase | Cytomegalovirus | - | - | inhibition | target | 10 µM | - | >15%
COC(=O)CCCCC(=O)Nc1ccc(I)cc1I | - | Mycobacterium tuberculosis | H37Rv | - | MIC | culture | - | - | >100 µg/mL
O=[n+]1c2ccccc2n([O-])c2ccccc21 | - | Mycobacterium tuberculosis | KM-R | - | MIC | culture | - | - | 3.1 µg/mL
OCc1ccccc1Sc1ccccc1CNCCNCCCc1ccccc1 | - | Mycobacterium tuberculosis | - | - | MIC | culture | - | - | 50 µM
COc1ccc(Cl)c(C(=O)O)c1 | - | Mycobacterium tuberculosis | H37Rv | - | MIC | culture | - | - | >100 µg/mL
Cc1nc(C(=O)O)c(=O)[nH]c1C | - | Mycobacterium tuberculosis | H37Rv | - | inhibition | culture | 12.5 µg/mL | BACTEC | 0%
O=C(NCCBr)c1ccc([N+](=O)[O-])cc1 | - | Mycobacterium tuberculosis | H37Rv | - | MIC | culture | - | - | >100 µg/mL
CC(=O)O[C@H]1CC[C@@]2(C)[C@H](CC[C@@H]3[C@@H]2CC[C@]2(C)[C@@H]4[C@H](C[C@@H]32)O[C@]2(CC[C@@H](C)CO2)[C@H]4C)C1 | - | Mycobacterium tuberculosis | H37Rv | - | MIC | culture | - | BACTEC | ≥128 µg/mL
O=C(O)c1ccccc1N=Nc1ccc(NCCO)cc1 | - | Mycobacterium tuberculosis | H37Rv | - | MIC | culture | - | - | >100 µg/mL
O=C(C[n+]1ccccc1)N/N=C(\CCC(=O)N(Cc1ccccc1)Cc1ccccc1)CC(=O)c1ccccc1.[Cl-] | - | Mycobacterium tuberculosis | H37Rv | - | MIC bound | culture | - | BACTEC | >12.5 µg/mL
CCOC=C(C(=O)OCC)C(=O)OCC | - | Mycobacterium tuberculosis | H37Rv | - | MIC | culture | - | - | 50 µg/mL
FC1(c2cncc(N3CCN(c4cnccn4)CC3)n2)C=CC(c2ccccc2)=CC1 | UL97 kinase | Cytomegalovirus | - | - | inhibition | target | 10 µM | - | >15%
Cc1ccc(C)n1-c1cc2cccnc2cc1C(F)(F)F | - | Mycobacterium tuberculosis | H37Rv | - | MIC | culture | - | - | >100 µg/mL
Fc1ccc(N2CCCCC2)c(NC(=S)c2ccncc2)c1 | EGFR | - | - | - | inhibition | host protein | 10 µM | kinase activity | -4%
CCOc1cc(=O)cc2n(-c3cc(OCC)c(O)c(OCC)c3)c3ccccc3nc1-2 | - | Mycobacterium tuberculosis | H37Rv | - | inhibition | culture | 12.5 µg/mL | BACTEC | 74%
Cc1cc(C)c(-c2cc(O)c3ccccc3c2O)c(C)c1 | - | Mycobacterium tuberculosis | H37Rv | - | MIC | culture | - | - | >100 µg/mL
CCCCN(CCCC)C(=S)S[As](SC(=S)N(CCCC)CCCC)SC(=S)N(CCCC)CCCC | - | Mycobacterium tuberculosis | H37Rv | - | MIC bound | culture | - | BACTEC | ≤128 µg/mL
OC1CNCC1(O)c1ccccc1 | - | Mycobacterium tuberculosis | H37Rv | - | MIC | culture | - | - | >100 µg/mL
C#CC(C)(O)C=C | - | Mycobacterium tuberculosis | H37Rv | - | inhibition | culture | 6.25 µg/mL | resazurin | 3%
Nc1ccc([N+](=O)[O-])cc1O | - | Mycobacterium tuberculosis | H37Rv | - | MIC | culture | - | - | >100 µg/mL

The last 8 rows once more:

SMILES	target	agent	strain	cells	endpoint	test	tested at	read by	result
Cc1ccc(C)n1-c1cc2cccnc2cc1C(F)(F)F	-	Mycobacterium tuberculosis	H37Rv	-	MIC	culture	-	-	>100 µg/mL
Fc1ccc(N2CCCCC2)c(NC(=S)c2ccncc2)c1	EGFR	-	-	-	inhibition	host protein	10 µM	kinase activity	-4%
CCOc1cc(=O)cc2n(-c3cc(OCC)c(O)c(OCC)c3)c3ccccc3nc1-2	-	Mycobacterium tuberculosis	H37Rv	-	inhibition	culture	12.5 µg/mL	BACTEC	74%
Cc1cc(C)c(-c2cc(O)c3ccccc3c2O)c(C)c1	-	Mycobacterium tuberculosis	H37Rv	-	MIC	culture	-	-	>100 µg/mL
CCCCN(CCCC)C(=S)S[As](SC(=S)N(CCCC)CCCC)SC(=S)N(CCCC)CCCC	-	Mycobacterium tuberculosis	H37Rv	-	MIC bound	culture	-	BACTEC	≤128 µg/mL
OC1CNCC1(O)c1ccccc1	-	Mycobacterium tuberculosis	H37Rv	-	MIC	culture	-	-	>100 µg/mL
C#CC(C)(O)C=C	-	Mycobacterium tuberculosis	H37Rv	-	inhibition	culture	6.25 µg/mL	resazurin	3%
Nc1ccc([N+](=O)[O-])cc1O	-	Mycobacterium tuberculosis	H37Rv	-	MIC	culture	-	-	>100 µg/mL